In publication PMC2426711, “Pre-clinical development as microbicide of zinc tetra-ascorbo-camphorate, a novel terpenoid derivative: Potent in vitro inhibitory activity against both R5- and X4-tropic HIV-1 strains without significant in vivo mucosal toxicity” (AIDS Research and Therapy, 2008):

How the values were obtained:
[1] = tested on: monocyte-derived macrophages (MΦ); assay: MTT cytotoxicity assay on monocyte-derived macrophages; format: cell-based, human; details: 24 hours
[2] = tested on: monocyte-derived dendritic cells (DC); assay: MTT cytotoxicity assay on monocyte-derived dendritic cells; format: cell-based, human; details: 24 hours
[3] = tested on: primary cells (MDDC, T cells and MDM); details: overall statement
cervicovaginal mucosa = details: for Epithelium (0–4) score / Infiltration of leucocytes (0–4) score / Vascular congestion (0–4) score: mean ± 1 SD
T cells = assay: MTT cytotoxicity assay on T cells; format: cell-based, human; details: 24 hours
[4] = C14-HD, 20 μM, vaginally 1 ml per day, 10 days
[5] = C14-LD, 1 μM, vaginally 1 ml per day, 10 days

zinc tetra-ascorbo-camphorate [C14] showed a CC50 [1] of over 10 µM, a CC50 [2] of over 10 µM and a CC50 [3] of over 10 µM. For the same substance, the “clinical observations (vaginal discharge, erythema, edema)” value (cervicovaginal mucosa; 1 or 20 μM, 10 days) was “no vaginal discharge, erythema or edema were noted”, the mortality (cervicovaginal mucosa; 1 or 20 μM, 10 days) was “no mortality” and the “necrosis or vascular thrombi” value (cervicovaginal mucosa; 1 or 20 μM, 10 days) was “No necrosis or vascular thrombi were observed”. The “Edeme (0–4) score” value (cervicovaginal mucosa; [4]) was 0, the “Epithelium (0–4) score” value (cervicovaginal mucosa; [4]) was 1.560 ± 1.667 and the “Infiltration of leucocytes (0–4) score” value (cervicovaginal mucosa; [4]) was 0.556 ± 0.880. For the same substance, the “Vascular congestion (0–4) score” value (cervicovaginal mucosa; [4]) was 0.444 ± 1.330, the “erosion of the mucosal surface” value (cervicovaginal mucosa; C14-HD, 20 μM, two rabbits) was “local minimal erosion of the mucosal surface” and the “grade of leukocyte infiltration and vascular congestion” value (cervicovaginal mucosa; C14-LD or C14-HD, 10 days) was “minimal”. The “Edeme (0–4) score” value (cervicovaginal mucosa; [5]) was 0, the “Vaginal irritation index (0–16)” value (cervicovaginal mucosa; C14-LD, 1 μM, vaginally 1 ml per day, 10 days, addition of the four scores) was 2.1 and the “Epithelium (0–4) score” value (cervicovaginal mucosa; [5]) was 0.889 ± 1.270. For the same substance, the “Infiltration of leucocytes (0–4) score” value (cervicovaginal mucosa; [5]) was 0.444 ± 0.520, the “Vascular congestion (0–4) score” value (cervicovaginal mucosa; [5]) was 0.778 ± 1.394 and the CC50 (T cells) was over 10 µM.

Like-named read-outs stand apart in the source and are kept apart here.
